Measured values: publication doi:10.1101/2022.02.04.479134, “A Suite of TMPRSS2 Assays for Screening Drug Repurposing Candidates as Potential Treatments of COVID-19” (bioRxiv, 2022)

Amino acid sequences for entries named in this document (tags omitted). Residues count along the entry.
UniProt O15393, 106-492 limits assumed: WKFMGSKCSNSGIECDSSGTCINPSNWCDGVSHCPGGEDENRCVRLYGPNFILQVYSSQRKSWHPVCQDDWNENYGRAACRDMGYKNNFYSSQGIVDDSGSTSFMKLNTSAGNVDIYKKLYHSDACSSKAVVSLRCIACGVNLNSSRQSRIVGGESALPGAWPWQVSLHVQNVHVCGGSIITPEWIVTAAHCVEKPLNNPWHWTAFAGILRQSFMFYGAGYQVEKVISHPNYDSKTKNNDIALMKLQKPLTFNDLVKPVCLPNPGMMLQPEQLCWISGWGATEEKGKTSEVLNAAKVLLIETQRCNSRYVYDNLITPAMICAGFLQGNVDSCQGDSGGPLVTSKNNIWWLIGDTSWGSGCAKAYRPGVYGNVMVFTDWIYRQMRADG

How the values were obtained:
[1] = biological target: Recombinant Human TMPRSS2 (Homo sapiens, UniProt O15393); conditions: read-out: Biochemical (fluorogenic) AC50; 10 μM Boc-QAR-AMC, 0.175 μM TMPRSS2, 1 h RT, 11-point dose-response in triplicate
[2] = Fluorescence counterassay (AMC quenching); conditions: 1 μM AMC; 0% = 1 μM AMC, −100% = 0.1 μM AMC; <0% = quenching

In the case of `COc1ccc(CC(=O)NC(NC(=NC#N)Nc2cccc3ncccc23)C(C)(C)C)cc1OC` (centres unmarked), the AC50 [1] is reported as 20.3 µM and the “Biochemical (fluorogenic counterassay) Max Response” value [2] is reported as 31.2%.
